Publication PMC11672137, “High-Affinity Lectin Ligands Enable the Detection of Pathogenic Pseudomonas aeruginosa Biofilms: Implications for Diagnostics and Therapy” (JACS Au, 2024)

Amino acid sequences for entries named in this document (tags omitted). Residues count along the entry.
UniProt Q9HYN5, 2-115 limits assumed: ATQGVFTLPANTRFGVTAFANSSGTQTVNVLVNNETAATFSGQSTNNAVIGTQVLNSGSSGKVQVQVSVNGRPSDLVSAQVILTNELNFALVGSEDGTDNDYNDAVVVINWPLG
UniProt Q05097, whole entry: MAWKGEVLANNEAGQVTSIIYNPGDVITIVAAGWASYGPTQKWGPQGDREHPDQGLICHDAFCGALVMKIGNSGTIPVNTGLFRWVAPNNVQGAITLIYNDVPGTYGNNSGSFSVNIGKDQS

Legend:
[1] = molecular target: LecB (Pseudomonas aeruginosa, UniProt Q9HYN5); experiment: Competitive binding assay based on fluorescence polarization, LecB
[2] = molecular target: LecA (Pseudomonas aeruginosa, UniProt Q05097); experiment: Competitive binding assay based on fluorescence polarization, LecA; conditions: LecA 20 µM, reporter ligand S38, 2% DMSO; for IC50: read-out: IC50 (competitive binding, FP)
Description: Next, binding of the optimized divalent ligand 17 and its synthetic precursor 16 to LecA was evaluated by fluorescence polarization-based (FP) assays,[47] SPR, and ITC. […] Therefore, fluorescent ligand 17 was analyzed in a direct binding experiment by FP. […] The dissociation constants for 16 were 47.2 ± 11.3 nM (ITC) and 47.8 ± 44.1 nM (steady-state SPR), while for 17, the values were 64.1 ± 31.1 nM and 79.3 ± 24.9 nM (steady-state SPR). For the SPR experiments, Kd was also determined by single-cycle kinetic analysis resulting in approximately five times higher affinity, but the data have limited reliability due to suboptimal fit for the kinetic curves (Figures S13B and S14).[58]−[60]
Expression and purification of LecA17,18 and LecB (PAO1)19,20 was performed in analogy to the previously published protocols. LecA was purified on melibiose-coupled […]
137 mM NaCl, 2.6 mM KCl at pH 7.4 supplemented with 1 mM CaCl2). Protein concentration was determined by UV spectroscopy at 280 nm using a molar extinction coefficient of 27 960 M-1 cm-1 for LecA and 6 990 M-1 cm-1 for LecB.
All synthesized alkyne precursors (S5m, S5p, S6m, S6p, S11, 25, S16, S22 and S24) were analysed in the previously established competitive binding assays based on fluorescence polarization (Figure S2).18,19 Galactose-based compounds (S5m, S5p, S6m, S6p, S11) were evaluated against LecA and C-glycoside-based compounds 23 and S16 against LecB. As […]
concentration range and served as negative controls in both assays.
LecA competitive binding assay was performed in presence of 2% DMSO, whereas LecB competitive binding assay had less than 0.5% DMSO present. In short, the compound dilution series were prepared in 96 well plates. 10 µL of each dilution in triplicates were mixed with 10 µL of master mix (40 µM LecA, 20 nM galactose-fluorescein reporter ligand S38 or 300 nM LecB and 20 nM S39 in TBS/Ca2+ buffer, Figure S3) in 384-well microtiter plates (Greiner Bio-One, Germany, cat no 781900). The plates were centrifuged (1 min, 500 g), sealed (EASYseal, Greiner Bio-One, cat no 676001) and incubated for 1 h in case of LecA and 6 h in case of LecB in a dark wet chamber under gentle shaking. Fluorescence was measured on a […]
PheraStar FS plate reader (BMG Labtech GmbH, Germany) with excitation filters at 485 nm and emission filters at 535 nm. The measured intensities were reduced by the blank values (protein in TBS/Ca2+ buffer) and analysed with MARS Data Analysis Software (BMG Labtech GmbH, Germany). IC50 values were determined by the four-parameter variable slope model with the minimum and maximum limits of the fit fixed according to the controls in each assay […]
Direct binding affinity determination of LecA and LecB imaging probes was performed with direct titration of protein and imaging probes in TBS/Ca2+ buffer. Protein dilution series was prepared in 96 well plates and 10 µL of each dilution in triplicates were mixed with 10 µL of fluorescent compound (20 nM) in 384-well microtiter plates (Greiner Bio-One, Germany, cat no 781900). The plates were centrifuged (1 min, 500 g), sealed and incubated for 2 h in dark wet chamber under gentle shaking. Fluorescence was measured on a PheraStar FS plate reader (BMG Labtech GmbH, Germany) with excitation filters at 485 nm and emission filters at 535 nm. The data were analysed with MARS Data Analysis Software (BMG Labtech GmbH, Germany) to calculate Kd values.
Surface plasmon resonance experiments were performed on a BIACORE X100 instrument (GE Healthcare) at 25 °C as described by Zahorska et. al..2 Averages and standard deviations were calculated from three independent experiments.
Isothermal titration calorimetry (ITC) was performed on an iTC200 (Malvern Panalytical) and the data were analyzed using Microcal Origin software (Malvern Panalytical).
LecA (50 µM) in the cell was titrated with ligand (100 µM or 200 µM) in TBS/Ca2+ buffer supplemented with 5% DMSO at 25 °C. Steep titration slopes achieved with the divalent […]

Structure (SMILES) | IC50 [2] | also measured
C#CCNc1ccc(S[C@@H]2OC[C@@H](O)[C@H](O)[C@H]2O)cc1 [S22] | – | IC50 (competitive binding, FP) ([1]; reporter ligand S39, less than 0.5% DMSO): did not bind; IC50 (competitive binding, FP) [2]: did not bind
C#CCOc1ccc(S[C@@H]2O[C@H](CO)[C@H](O)[C@H](O)[C@H]2O)cc1 | 24.3 µM | –
C#CCCNc1cccc(S[C@@H]2O[C@H](CO)[C@H](O)[C@H](O)[C@H]2O)c1 | 17.8 µM | –
C#CCNc1ccc(S[C@@H]2O[C@H](CO)[C@H](O)[C@H](O)[C@H]2O)cc1 | 31.5 µM | –
C#CCNc1cccc(S[C@@H]2O[C@H](CO)[C@H](O)[C@H](O)[C@H]2O)c1 | 17.8 µM | –
C#CCOc1ccc(S(=O)(=O)NC[C@H]2O[C@@H](C)[C@@H](O)[C@@H](O)[C@@H]2O)cc1 | – | IC50 ([1]; read-out: IC50 (competitive binding, FP), reporter ligand S39, less than 0.5% DMSO): 3.8 µM
C#CCCNc1ccc(S[C@@H]2O[C@H](CO)[C@H](O)[C@H](O)[C@H]2O)cc1 | 22.3 µM | –
